Source: publication PMC5741678, “Specificity Characterization of SLA Class I Molecules Binding to Swine-Origin Viral Cytotoxic T Lymphocyte Epitope Peptides in Vitro” (2017)

Molecular target: partner chain of the complex shown
Test: ELISA
Details: parent: 0.73; read off a plot

B1: unnamed (protein)
parent chain 1: ENALLVALF
parent chain 2: GPHSLSYFYTAVSRPDRGDSRFIAVGYVDDTQFVRFDNYAPNPRMEPRVPWIQQEGQEYWDRETRNVKETAQTYGVGLNTLRGYYNQSEAGSHTLQSMYGCYLGPDGLLLHGYRQDAYDGADYIALNEDLRSWTAADMAAQITKRKWEAADEAERRRSYLQGLCVESLRRYLEMGKDTLQRAEPPKTHVTRHPSSDLGVTLRCWALGFYPKEISLTWQREGQDQSQDMELVETRPSGDGTFQKWAALVVPPGEEQSYTCHVQHEGLQEPLTLRWD
parent chain 3: VARPPKVQVYSRHPAENGKPNYLNCYVSGFHPPQIEIDLLKNGEKMNAEQSDLSFSKDWSFYLLVHTEFTPNAVDQYSCRVKHVTLDKPKIVKWDRDH
  response (relative OD value): 3.4
